# Laboratory results reported in patent publication EP2292225A1 (priority 1997, dated 1998).
# How the values were obtained:
# [1] = system: marker-negative HT29 cells; assay: Protein synthesis (^3H-leucine) after 5 minute pulse exposure; type: cell-based; conditions: 5 minute exposure; short-term and after 16-18 hours recovery
# [2] = system: BO54 arterial smooth muscle cells; assay: as above; type: cell-based, baboon; conditions: 5 minute exposure; for protein synthesis, long-term: recovery period
# [3] = system: HT29 marker-negative cells; assay: MTT metabolic activity 48 hours after 5 minute exposure; type: cell-based; conditions: 48 hours recovery, conjugates at the lower doses
# [4] = system: BO54 marker-positive smooth muscle cells; assay: as above; type: cell-based, baboon; conditions: 48 hours recovery, conjugates at the lower doses
# [5] = system: A375 m/m marker-positive cells; assay: as above; type: cell-based, human; conditions: 48 hours recovery, conjugates at the lower doses
# [6] = system: marker-positive A375 cells; assay: Protein synthesis (^3H-leucine) after 5 minute pulse exposure; type: cell-based, human
# [7] = system: BO54 (smooth muscle) cells; assay: MTT metabolic activity after 24 hours exposure; type: cell-based, baboon; conditions: overnight recovery period
substance,measurement,setting,value
Roridin A,inhibition of cellular protein synthesis,[1],dose-response inhibition of cellular protein synthesis
same,"protein synthesis, long-term",[2]; 50 ng/ml,98 % of control
same,"protein synthesis, long-term",[2]; 100 ng/ml,46 % of control
same,"protein synthesis, long-term",[2]; 200 ng/ml,27 % of control
same,"protein synthesis, short-term",[2]; 50 ng/ml,90 % of control
same,"protein synthesis, short-term",[2]; 100 ng/ml,66 % of control
same,"protein synthesis, short-term",[2]; 200 ng/ml,60 % of control
same,metabolic activity over the long-term (MTT),[3],non-specifically inhibitory
same,metabolic activity over the long-term (MTT),[4],non-specifically inhibitory
same,metabolic activity over the long-term (MTT),[5],non-specifically inhibitory
same,"inhibition of protein synthesis, long-term","[6]; 5 minute exposure, 16-18 hour recovery period",manifest even after a 16-18 hour recovery period
same,"inhibition of protein synthesis, short-term",[6]; immediately after the 5-minute pulse treatment,non-specifically inhibitory
same,concentration at which inhibitory effects on metabolic activity (MTT) were observed,[7],> 10 ng/mL
